Measurements as given in PubChem BioAssay (NCATS).
The entries are a selection whose mix differs from that of the whole data set. Results filed as inconclusive are left out. Activity calls are given as the source filed them. Calls follow the shape of the dose curve; as a rule, active = well fitted curve in the direction sought with a large enough effect; inconclusive = small, poorly fitted or top-dose-only effect, or another doubt; inactive = no such curve, though single readings can be large; an effect the other way counts as inactive or inconclusive.

The chains behind the UniProt entries cited, without tags or fusion partners. Where a name states a change or a piece, a line headed by the entry shows the natural chain unless it says otherwise.
UniProt O15648: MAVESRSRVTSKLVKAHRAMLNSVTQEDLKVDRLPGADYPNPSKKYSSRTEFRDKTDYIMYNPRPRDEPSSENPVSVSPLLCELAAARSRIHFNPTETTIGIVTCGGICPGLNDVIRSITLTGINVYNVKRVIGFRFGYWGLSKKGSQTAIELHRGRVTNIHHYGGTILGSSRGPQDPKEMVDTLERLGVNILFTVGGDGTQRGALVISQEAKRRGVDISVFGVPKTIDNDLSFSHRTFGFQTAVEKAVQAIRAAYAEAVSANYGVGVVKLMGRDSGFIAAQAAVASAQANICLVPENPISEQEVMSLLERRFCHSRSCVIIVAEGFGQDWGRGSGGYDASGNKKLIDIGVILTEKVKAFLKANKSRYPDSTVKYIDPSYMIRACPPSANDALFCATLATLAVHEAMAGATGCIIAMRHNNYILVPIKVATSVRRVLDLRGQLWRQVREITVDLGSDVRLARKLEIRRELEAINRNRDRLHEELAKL

Legend:
[1] = molecular target: ATP-dependent 6-phosphofructokinase (Trypanosoma brucei brucei) (UniProt O15648); assay: qHTS Assay to Find Inhibitors of T. brucei phosphofructokinase: hit validation (AID 492961);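 also: luminescence reports ADP formed as PFK phosphorylates fructose-6-phosphate with ATP; % is scaled to controls: 0 for no effect and ±100 for the full control effect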; settings: T. brucei PFK, ADP-Glo luminescence; at 51.4 µM (top of the series)
In short: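 Measures ADP output of PFK (1.25 nM) at 0.1 mM ATP, 0.5 mM F6P, pH 8.0 TEA buffer with 5 mM MgCl2. No-enzyme wells define full inhibition; uninhibited enzyme wells define zero.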

[2] = qHTS profiling for inhibitors of Plasmodium falciparum proliferation (AID 504749);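 also: 0% = DMSO vehicle and full inhibition = artemisinin control; nearly all actives have a fitted effect of over 60% in size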; settings: P. falciparum in erythrocytes, SYBR Green DNA, 72 h, at 28.7 µM (top of the series)
In short: (§1)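 SYBR Green fluorescence of parasite DNA, read after lysis and overnight dark incubation, measured growth over 72 h in erythrocyte culture at 0.3% parasitemia and 2.5% hematocrit. Data normalised to DMSO and 0.29 uM artemisinin, with plate-drift correction.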

3D7 = assay: as above; settings: P. falciparum in erythrocytes, SYBR Green DNA, 72 h; at 28.7 µM (top of the series)
In short: as §1

AA1029 = assay: as above; settings: P. falciparum in erythrocytes, SYBR Green DNA, 72 h; at 28.7 µM (top of the series)
In short: as §1

AS120 = assay: as above; settings: P. falciparum in erythrocytes, SYBR Green DNA, 72 h; at 28.7 µM (top of the series)
In short: as §1

ATS189 = assay: as above; settings: P. falciparum in erythrocytes, SYBR Green DNA, 72 h; at 28.7 µM (top of the series)
In short: as §1

ATS95 = assay: as above; settings: P. falciparum in erythrocytes, SYBR Green DNA, 72 h; at 28.7 µM (top of the series)
In short: as §1

C2A = assay: as above; settings: P. falciparum in erythrocytes, SYBR Green DNA, 72 h; at 28.7 µM (top of the series)
In short: as §1

CP185 = assay: as above; settings: P. falciparum in erythrocytes, SYBR Green DNA, 72 h; at 28.7 µM (top of the series)
In short: as §1

CP191 = assay: as above; settings: P. falciparum in erythrocytes, SYBR Green DNA, 72 h; at 28.7 µM (top of the series)
In short: as §1

CP192 = assay: as above; settings: P. falciparum in erythrocytes, SYBR Green DNA, 72 h; at 28.7 µM (top of the series)
In short: as §1

CP194 = assay: as above; settings: P. falciparum in erythrocytes, SYBR Green DNA, 72 h; at 28.7 µM (top of the series)
In short: as §1

CP201 = assay: as above; settings: P. falciparum in erythrocytes, SYBR Green DNA, 72 h; at 28.7 µM (top of the series)
In short: as §1

CP203 = assay: as above; settings: P. falciparum in erythrocytes, SYBR Green DNA, 72 h; at 28.7 µM (top of the series)
In short: as §1

CP211 = assay: as above; settings: P. falciparum in erythrocytes, SYBR Green DNA, 72 h; at 28.7 µM (top of the series)
In short: as §1

CP215 = assay: as above; settings: P. falciparum in erythrocytes, SYBR Green DNA, 72 h; at 28.7 µM (top of the series)
In short: as §1

CP217 = assay: as above; settings: P. falciparum in erythrocytes, SYBR Green DNA, 72 h; at 28.7 µM (top of the series)
In short: as §1

CP237 = assay: as above; settings: P. falciparum in erythrocytes, SYBR Green DNA, 72 h; at 28.7 µM (top of the series)
In short: as §1

CP238 = assay: as above; settings: P. falciparum in erythrocytes, SYBR Green DNA, 72 h; at 28.7 µM (top of the series)
In short: as §1

CP247 = assay: as above; settings: P. falciparum in erythrocytes, SYBR Green DNA, 72 h; at 28.7 µM (top of the series)
In short: as §1

CP250 = assay: as above; settings: P. falciparum in erythrocytes, SYBR Green DNA, 72 h; at 28.7 µM (top of the series)
In short: as §1

CP252 = assay: as above; settings: P. falciparum in erythrocytes, SYBR Green DNA, 72 h; at 28.7 µM (top of the series)
In short: as §1

CP256 = assay: as above; settings: P. falciparum in erythrocytes, SYBR Green DNA, 72 h; at 28.7 µM (top of the series)
In short: as §1

CP260 = assay: as above; settings: P. falciparum in erythrocytes, SYBR Green DNA, 72 h; at 28.7 µM (top of the series)
In short: as §1

CP262 = assay: as above; settings: P. falciparum in erythrocytes, SYBR Green DNA, 72 h; at 28.7 µM (top of the series)
In short: as §1

CP265 = assay: as above; settings: P. falciparum in erythrocytes, SYBR Green DNA, 72 h; at 28.7 µM (top of the series)
In short: as §1

CP266 = assay: as above; settings: P. falciparum in erythrocytes, SYBR Green DNA, 72 h; at 28.7 µM (top of the series)
In short: as §1

CP268 = assay: as above; settings: P. falciparum in erythrocytes, SYBR Green DNA, 72 h; at 28.7 µM (top of the series)
In short: as §1

CP269 = assay: as above; settings: P. falciparum in erythrocytes, SYBR Green DNA, 72 h; at 28.7 µM (top of the series)
In short: as §1

CP286 = assay: as above; settings: P. falciparum in erythrocytes, SYBR Green DNA, 72 h; at 28.7 µM (top of the series)
In short: as §1

CP291 = assay: as above; settings: P. falciparum in erythrocytes, SYBR Green DNA, 72 h; at 28.7 µM (top of the series)
In short: as §1

CP297 = assay: as above; settings: P. falciparum in erythrocytes, SYBR Green DNA, 72 h; at 28.7 µM (top of the series)
In short: as §1

CP305 = assay: as above; settings: P. falciparum in erythrocytes, SYBR Green DNA, 72 h; at 28.7 µM (top of the series)
In short: as §1

CP315 = assay: as above; settings: P. falciparum in erythrocytes, SYBR Green DNA, 72 h; at 28.7 µM (top of the series)
In short: as §1

CP325 = assay: as above; settings: P. falciparum in erythrocytes, SYBR Green DNA, 72 h; at 28.7 µM (top of the series)
In short: as §1

CP329 = assay: as above; settings: P. falciparum in erythrocytes, SYBR Green DNA, 72 h; at 28.7 µM (top of the series)
In short: as §1

CP335 = assay: as above; settings: P. falciparum in erythrocytes, SYBR Green DNA, 72 h; at 28.7 µM (top of the series)
In short: as §1

DFO2036 = assay: as above; settings: P. falciparum in erythrocytes, SYBR Green DNA, 72 h; at 28.7 µM (top of the series)
In short: as §1

DIV14 = assay: as above; settings: P. falciparum in erythrocytes, SYBR Green DNA, 72 h; at 28.7 µM (top of the series)
In short: as §1

DIV17 = assay: as above; settings: P. falciparum in erythrocytes, SYBR Green DNA, 72 h; at 28.7 µM (top of the series)
In short: as §1

DIV30 = assay: as above; settings: P. falciparum in erythrocytes, SYBR Green DNA, 72 h; at 28.7 µM (top of the series)
In short: as §1

Dd2 = assay: as above; settings: P. falciparum in erythrocytes, SYBR Green DNA, 72 h; at 28.7 µM (top of the series)
In short: as §1

ECU = assay: as above; settings: P. falciparum in erythrocytes, SYBR Green DNA, 72 h; at 28.7 µM (top of the series)
In short: as §1

FAB9 = assay: as above; settings: P. falciparum in erythrocytes, SYBR Green DNA, 72 h; at 28.7 µM (top of the series)
In short: as §1

GB4 = assay: as above; settings: P. falciparum in erythrocytes, SYBR Green DNA, 72 h; at 28.7 µM (top of the series)
In short: as §1

HB3 = assay: as above; settings: P. falciparum in erythrocytes, SYBR Green DNA, 72 h; at 28.7 µM (top of the series)
In short: as §1

ICS = assay: as above; settings: P. falciparum in erythrocytes, SYBR Green DNA, 72 h; at 28.7 µM (top of the series)
In short: as §1

JCK = assay: as above; settings: P. falciparum in erythrocytes, SYBR Green DNA, 72 h; at 28.7 µM (top of the series)
In short: as §1

N140 = assay: as above; settings: P. falciparum in erythrocytes, SYBR Green DNA, 72 h; at 28.7 µM (top of the series)
In short: as §1

P93_24 = assay: as above; settings: P. falciparum in erythrocytes, SYBR Green DNA, 72 h; at 28.7 µM (top of the series)
In short: as §1

P94_40 = assay: as above; settings: P. falciparum in erythrocytes, SYBR Green DNA, 72 h; at 28.7 µM (top of the series)
In short: as §1

PAD = assay: as above; settings: P. falciparum in erythrocytes, SYBR Green DNA, 72 h; at 28.7 µM (top of the series)
In short: as §1

PC15 = assay: as above; settings: P. falciparum in erythrocytes, SYBR Green DNA, 72 h; at 28.7 µM (top of the series)
In short: as §1

PC26 = assay: as above; settings: P. falciparum in erythrocytes, SYBR Green DNA, 72 h; at 28.7 µM (top of the series)
In short: as §1

PC49 = assay: as above; settings: P. falciparum in erythrocytes, SYBR Green DNA, 72 h; at 28.7 µM (top of the series)
In short: as §1

SC27B = assay: as above; settings: P. falciparum in erythrocytes, SYBR Green DNA, 72 h; at 28.7 µM (top of the series)
In short: as §1

TAB109 = assay: as above; settings: P. falciparum in erythrocytes, SYBR Green DNA, 72 h; at 28.7 µM (top of the series)
In short: as §1

TAB113 = assay: as above; settings: P. falciparum in erythrocytes, SYBR Green DNA, 72 h; at 28.7 µM (top of the series)
In short: as §1

TAB165 = assay: as above; settings: P. falciparum in erythrocytes, SYBR Green DNA, 72 h; at 28.7 µM (top of the series)
In short: as §1

W2 = assay: as above; settings: P. falciparum in erythrocytes, SYBR Green DNA, 72 h; at 28.7 µM (top of the series)
In short: as §1

O=C(OC1CN2CCC1CC2)c1ccccc1 (stereo unspecified)
inactive: activity change, negative = inhibition [1] -1.8% | activity, negative = inhibition ([2]; parasite line A) -0.149% | activity, negative = inhibition ([2]; parasite line B) 3.2% | activity, negative = inhibition (3D7) 8.02% | activity, negative = inhibition (AA1029) 2.59% | activity, negative = inhibition (AS120) 6.18% | activity, negative = inhibition (ATS189) -11.1% | activity, negative = inhibition (ATS95) -4.39% | activity, negative = inhibition (C2A) -6.12% | activity, negative = inhibition (CP185) -1.12% | activity, negative = inhibition (CP191) 5.09% | activity, negative = inhibition (CP192) 3.72% | activity, negative = inhibition (CP194) -0.119% | activity, negative = inhibition (CP201) -13.3% | activity, negative = inhibition (CP203) -0.123% | activity, negative = inhibition (CP211) 10.4% | activity, negative = inhibition (CP215) 4.58% | activity, negative = inhibition (CP217) 0.243% | activity, negative = inhibition (CP237) -9.41% | activity, negative = inhibition (CP238) 2.14% | activity, negative = inhibition (CP247) 5% | activity, negative = inhibition (CP250) 4.25% | activity, negative = inhibition (CP252) -10.2% | activity, negative = inhibition (CP256) 3.53% | activity, negative = inhibition (CP260) -2.21% | activity, negative = inhibition (CP262) -1.46% | activity, negative = inhibition (CP265) 1.19% | activity, negative = inhibition (CP266) 10.1% | activity, negative = inhibition (CP268) -4.26% | activity, negative = inhibition (CP269) 2.82% | activity, negative = inhibition (CP286) 0.948% | activity, negative = inhibition (CP291) -0.505% | activity, negative = inhibition (CP297) -1.89% | activity, negative = inhibition (CP305) -8.6% | activity, negative = inhibition (CP315) -5.55% | activity, negative = inhibition (CP325) 9.51% | activity, negative = inhibition (CP329) -0.4% | activity, negative = inhibition (CP335) 2.51% | activity, negative = inhibition (DFO2036) -9.78% | activity, negative = inhibition (DIV14) -27.2% | activity, negative = inhibition (DIV17) -20.2% | activity, negative = inhibition (DIV30) -4.63% | activity, negative = inhibition (Dd2) -9.15% | activity, negative = inhibition (ECU) -5.55% | activity, negative = inhibition (FAB9) -0.0515% | activity, negative = inhibition (GB4) -14.1% | activity, negative = inhibition (HB3) -12% | activity, negative = inhibition (ICS) -3.29% | activity, negative = inhibition (JCK) -8.57% | activity, negative = inhibition (N140) 4.86% | activity, negative = inhibition (P93_24) -1.29% | activity, negative = inhibition (P94_40) -1.56% | activity, negative = inhibition (PAD) -1.07% | activity, negative = inhibition (PC15) -5.69% | activity, negative = inhibition (PC26) -2.13% | activity, negative = inhibition (PC49) -7.61% | activity, negative = inhibition (SC27B) 2.44% | activity, negative = inhibition (TAB109) -12.4% | activity, negative = inhibition (TAB113) 11.1% | activity, negative = inhibition (TAB165) 0.462% | activity, negative = inhibition (W2) 0.282%
